This data set has as its system T1, LysRNtHis6 (Nocardia terpenica IFM 0406).
T1 sequence (looked up): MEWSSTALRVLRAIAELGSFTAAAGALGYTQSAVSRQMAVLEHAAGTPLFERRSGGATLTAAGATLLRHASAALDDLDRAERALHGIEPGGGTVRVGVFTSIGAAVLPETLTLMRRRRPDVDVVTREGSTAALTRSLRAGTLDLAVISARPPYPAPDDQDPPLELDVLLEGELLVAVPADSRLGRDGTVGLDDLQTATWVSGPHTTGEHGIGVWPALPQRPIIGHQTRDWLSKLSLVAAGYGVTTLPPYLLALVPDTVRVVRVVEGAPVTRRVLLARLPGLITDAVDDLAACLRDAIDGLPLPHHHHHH
Nature of the data set: EMSA. The following applies: 1x PBS ([…], BSA, glycerol, recombinant protein, probe letters rebuilt from the primers and the genome. (Mobility shift assays separate free from complexed probe on a gel.)

Data on 2 sequences can be found in article PMC7837296, “A novel LysR‐type regulator negatively affects biosynthesis of the immunosuppressant brasilicardin” (Engineering in Life Sciences, 2020).

Tags and fusion partners may be left off the protein sequences shown. Construct, isoform or probe ends are uncertain for at least one entry.

With “GGTCGCAGGCATCGATGACCCCTCCTGGCCGCAACGGGAAGCCGACGGCTGCCATGGTATGTCGCGGATCCGAATCGCGCAGCCCAACGAGCGGATAAATTTAGGATAAACAATGCTTCCGGACAATAATTTCTGGATAACATCGAAACCGGTCATATTGCCCGTGATCGGTTTTCCGTGGGATGATCCCGGCATACATTCGGTACGGGGTGGAGGTCGGACGGTCCGGCAATTCTGTCGATCATGAATTGGTGAGTTTTTCCGGTGGCGTCACGGCGAAACCGGCGGTTGATAGCGGAGGGTCCGGTGATGGTGAATTCCGGAGAATGGGTCGACGACCCCGACTTGTCCATGAACACCGTGGCATTTCGCCCGGATCGGCAGCTGGTGGCGAGGGCGGCGG (double strand) [bra0-1p]”, the binding result (50-500 nM, nearly all DNA bound at 500 nM, highest affinity of tested, protein details: C-terminal His6, label: 32P) is reported as “binds”.

For the sequence “GGTCGCAGGCATCGATGACCCCTCCTGGCCGCAACGGGAAGCCGACGGCTGCCATGGTATGTCGCGGATCCGAATCGCGCAGCCCAACGAGCGGATAAATTTAGGATAAACAATGCTTCCGGACAATAATTTCTGGATAACATCGAAACCGGTCATATTGCCCGTGATCGGTTTTCCGTGGGATGATCCCGGCATACATTCGGTACGGGGTGGAGGTCGGACGGTCCGGCAATTCTGTCGATCATGAATTGGTGAGTTTCCTCTAGAATATCACGGCGAAACCGGCGGTTGATAGCGGAGGGTCCGGTGATGGTGAATTCCGGAGAATGGGTCGACGACCCCGACTTGTCCATGAACACCGTGGCATTTCGCCCGGATCGGCAGCTGGTGGCGAGGGCGGCGG (double strand) [ΔM2_bra0-1p]”, the binding result (200-1000 nM, protein details: C-terminal His6, label: Cy5 (primer pTZCy5), part of a longer molecule) is given as “binds”.
